Measured values from several laboratories, pooled; numbers as filed in NIAID ChemDB.

All rows: tests in culture; species: Mycobacterium avium complex

A number after MIC or MFC names an inhibition level or a share of isolates. Blank or dashed fields: not listed here. Lines come from different laboratories, so protocols vary.

{"compound": "CO[C@H]1/C=C/O[C@@]2(C)Oc3c(C)c(O)c4c(O)c(c(/C=N/N5CCN(C6CCCC6)CC5)c(O)c4c3C2=O)NC(=O)/C(C)=C\\C=C\\[C@H](C)[C@H](O)[C@@H](C)[C@@H](O)[C@@H](C)[C@H](OC(C)=O)[C@@H]1C", "measure": "MIC", "strain": "Serotype 8", "value": "5 µg/mL"}
{"compound": "CCCc1cc(C(N)=S)ccn1", "measure": "MIC", "strain": "32 isolates", "value": "10 µg/mL"}
{"compound": "CC1CN(c2cc3c(cc2F)c(=O)c(C(=O)O)cn3C(C)C)CC(C)N1", "measure": "MIC90", "strain": "14 strains", "value": "16 µg/mL"}
{"compound": "NCCC(O)C(N)CC(=O)NC1CNC(=O)C(C2CCN=C(N)N2)NC(=O)/C(=C/NC(N)=O)NC(=O)C(CO)NC(=O)C(CO)NC1=O", "measure": "MIC", "strain": "13008 (serotype 20)", "value": "6.25 µg/mL"}
{"compound": "CCCCOP(=O)(OCCCC)OCCCC", "measure": "MIC50", "strain": "32 isolates", "value": ">128 µg/mL"}
{"compound": "CN[C@@H]1[C@H](O[C@H]2[C@H](O[C@H]3[C@H](O)[C@@H](O)[C@H](N=C(N)N)[C@@H](O)[C@@H]3N=C(N)N)O[C@@H](C)[C@]2(O)C=O)O[C@@H](CO)[C@H](O)[C@H]1O", "measure": "MIC", "strain": "Isolate C-28", "value": "400 µg/mL"}
{"compound": "CN1CCN(c2cc3c(cc2F)c(=O)c(C(=O)O)cn3-c2ccc(F)cc2)CC1", "measure": "MIC", "strain": "3219", "value": "16 µg/mL"}
{"compound": "NC[C@@H]1O[C@H](O[C@H]2[C@@H](O)[C@H](O[C@@H]3[C@@H](O)[C@H](N)C[C@H](N)[C@H]3O[C@H]3O[C@H](CO)[C@@H](O)[C@H](O)[C@H]3N)O[C@@H]2CO)[C@H](N)[C@@H](O)[C@@H]1O", "measure": "MIC", "strain": "TMC 1469", "value": "3.13 µg/mL"}
{"compound": "CNC1CCN(c2c(F)cc3c(=O)c(C(=O)O)cn(C4CC4)c3c2F)C1", "measure": "MIC", "strain": "PI12/39", "value": "2 µg/mL"}
{"compound": "C[C@@H]1CN(c2c(F)c(N)c3c(=O)c(C(=O)O)cn(C4CC4)c3c2F)C[C@H](C)N1", "read by": "broth dilution", "measure": "MIC", "strain": "15", "value": "≤0.06 µg/mL"}
{"compound": "CO[C@H]1/C=C/O[C@@]2(C)Oc3c(C)c(O)c4c(O)c(c(/C=N/N5CCN(C)CC5)c(O)c4c3C2=O)NC(=O)/C(C)=C\\C=C\\[C@H](C)[C@H](O)[C@@H](C)[C@@H](O)[C@@H](C)[C@H](OC(C)=O)[C@@H]1C", "measure": "MIC", "strain": "1295/HIV-", "value": "2 µg/mL"}
{"compound": "NNC(=O)c1ccncc1", "measure": "MIC", "strain": "1008", "value": "2 µg/mL"}
{"compound": "CC(C)N1CCN(c2cc3c(cc2F)c(=O)c(C(=O)O)cn3-c2ccc(F)cc2F)CC1", "measure": "MIC90", "strain": "14 strains", "value": ">32 µg/mL"}
{"compound": "NCCC(O)C(N)CC(=O)NC1CNC(=O)C(C2CCN=C(N)N2)NC(=O)/C(=C/NC(N)=O)NC(=O)C(CO)NC(=O)C(CO)NC1=O", "measure": "MIC", "strain": "TMC 1403", "value": "3.13 µg/mL"}
{"compound": "NC[C@H]1O[C@H](O[C@H]2[C@H](O)[C@@H](O[C@H]3O[C@H](CO)[C@@H](O)[C@H](N)[C@H]3O)[C@H](N)C[C@@H]2N)[C@H](O)[C@@H](O)[C@@H]1O", "measure": "MIC", "strain": "N-289 (HIV-)", "value": "4 µg/mL"}
{"compound": "O=C(O)c1cn(C2CC2)c2c(F)c(N3CCN4CCC3C4)c(F)cc2c1=O", "measure": "MIC", "strain": "1760694", "value": "2 µg/mL"}
{"compound": "O=C(Nc1ccc(C(=O)O)c(O)c1)c1ccccc1", "measure": "MIC", "strain": "32 isolates", "value": "10 µg/mL"}
{"compound": "CCC1CN(c2cc3c(cc2F)c(=O)c(C(=O)O)cn3-c2ccc(F)cc2F)CCN1", "measure": "MIC50", "strain": "14 strains", "value": "8 µg/mL"}
{"compound": "CC[C@H]1OC(=O)[C@H](C)[C@@H](O[C@H]2C[C@@](C)(OC)[C@@H](O)[C@H](C)O2)[C@H](C)[C@@H](O[C@@H]2O[C@H](C)C[C@H](N(C)C)[C@H]2O)[C@](C)(OC)C[C@@H](C)C(=O)[C@H](C)[C@@H](O)[C@]1(C)O", "measure": "MIC", "strain": "1008", "value": "2 µg/mL"}
{"compound": "CO[C@H]1/C=C/O[C@@]2(C)Oc3c(C)c(O)c4c(O)c(c5c(c4c3C2=O)NC2(CCN(CC(C)C)CC2)N=5)=NC(=O)/C(C)=C\\C=C\\[C@H](C)[C@H](O)[C@@H](C)[C@@H](O)[C@@H](C)[C@H](OC(C)=O)[C@@H]1C", "measure": "MIC50", "strain": "52 isolates", "value": "0.39 µg/mL"}
{"compound": "O=C(O)c1cn(C2CC2)c2c(F)c(N3CCSCC3)c(F)cc2c1=O", "measure": "MIC", "strain": "PI12/39", "value": "4 µg/mL"}
{"compound": "CC1CN(c2cc3c(cc2F)c(=O)c(C(=O)O)cn3C(C)(C)C)CCN1", "measure": "MIC50", "strain": "14 strains", "value": "0.25 µg/mL"}
{"compound": "CCc1cc(C(N)=S)ccn1", "measure": "MIC", "strain": "32 isolates", "value": "10 µg/mL"}
{"compound": "NCC1CN(c2c(F)cc3c(=O)c(C(=O)O)cn(C4CC4)c3c2F)CC1c1ccccc1", "measure": "MIC", "strain": "1915112", "value": "16 µg/mL"}
{"compound": "CCn1cc(C(=O)O)c(=O)c2cc(F)c(N3CCNCC3)nc21", "measure": "MIC", "strain": "CIPT 140310031", "value": "20 µg/mL"}
{"compound": "C[C@@H](O)[C@H]1C(=O)N2C(C(=O)O)=C(SCCN=CN)C[C@H]12", "measure": "MIC", "strain": "32 isolates", "value": "4 µg/mL"}
{"compound": "CN[C@@H]1[C@H](O[C@H]2[C@H](O[C@H]3[C@H](O)[C@@H](O)[C@H](N=C(N)N)[C@@H](O)[C@@H]3N=C(N)N)O[C@@H](C)[C@]2(O)C=O)O[C@@H](CO)[C@H](O)[C@H]1O", "measure": "MIC", "strain": "TMC 1469", "value": "1.56 µg/mL"}
{"compound": "NCC[C@H](O)C(=O)N[C@@H]1C[C@H](N)[C@@H](O[C@H]2O[C@H](CN)[C@@H](O)[C@H](O)[C@H]2O)[C@H](O)[C@H]1O[C@H]1O[C@H](CO)[C@@H](O)[C@H](N)[C@H]1O", "measure": "MIC", "strain": "804/HIV+", "value": "2 µg/mL"}
{"compound": "FC(F)(F)c1cc(CSc2nc3ccccc3[nH]2)cc(C(F)(F)F)c1", "measure": "MIC", "strain": "MY330/88", "value": ">62 µM"}
{"compound": "CC[C@@H](CO)NCCN[C@@H](CC)CO", "measure": "MIC", "strain": "13016 (serotype 4)", "value": "0.8 µg/mL"}
{"compound": "CC[C@@H](CO)NCCN[C@@H](CC)CO", "measure": "MBC", "strain": "168-4", "value": "30 µg/mL"}
{"compound": "CCn1cc(C(=O)O)c(=O)c2cc(F)c(N3CCNCC3)cc21", "measure": "MIC", "strain": "CIPT 14031006", "value": "2 µg/mL"}
{"compound": "O=C(O)c1cn(C2CC2)c2c(F)c(N3CC4CC3CN4)c(F)cc2c1=O", "measure": "MIC", "strain": "1172733", "value": "2 µg/mL"}
{"compound": "NC[C@@H]1O[C@H](O[C@H]2[C@@H](O)[C@H](O[C@@H]3[C@@H](O)[C@H](N)C[C@H](N)[C@H]3O[C@H]3O[C@H](CO)[C@@H](O)[C@H](O)[C@H]3N)O[C@@H]2CO)[C@H](N)[C@@H](O)[C@@H]1O", "measure": "MIC", "strain": "542/HIV+", "value": "<1.56 µg/mL"}
{"compound": "CCN1CCN(c2cc3c(cc2F)c(=O)c(C(=O)O)cn3C(C)(C)C)CC1", "measure": "MIC50", "strain": "14 strains", "value": "0.5 µg/mL"}
{"compound": "Cc1ccc(CSc2nc3ccccc3[nH]2)cc1", "measure": "MIC", "strain": "MY330/88", "value": "32 µM"}
{"compound": "NCC[C@H](O)C(=O)N[C@@H]1C[C@H](N)[C@@H](O[C@H]2O[C@H](CN)[C@@H](O)[C@H](O)[C@H]2O)[C@H](O)[C@H]1O[C@H]1O[C@H](CO)[C@@H](O)[C@H](N)[C@H]1O", "measure": "MIC", "strain": "535/HIV+", "value": "1.25 µg/mL"}
{"compound": "CCCCCSc1nc2ccccc2[nH]1", "measure": "MIC", "strain": "MY330/88", "value": "62 µM"}
{"compound": "O=C(O)c1cn(C2CC2)c2c(F)c(N3CCC(N4CCCC4)C3)c(F)cc2c1=O", "measure": "MIC", "strain": "PI12/39", "value": "1 µg/mL"}
{"compound": "CC(C)N1CCN(c2nc3c(cc2F)c(=O)c(C(=O)O)cn3C2CC2)CC1", "measure": "MIC50", "strain": "14 strains", "value": "4 µg/mL"}
{"compound": "CC[C@@H](CO)NCCN[C@@H](CC)CO", "measure": "MIC", "strain": "3212", "value": "32 µg/mL"}
{"compound": "CC[C@@H](CO)NCCN[C@@H](CC)CO", "measure": "MIC", "strain": "595-5", "value": "1.9 µg/mL"}
{"compound": "CC1CN(c2c(F)cc3c(=O)c(C(=O)O)cn(C4CC4)c3c2F)CC(C)N1", "measure": "MIC", "strain": "1760694", "value": "2 µg/mL"}
{"compound": "CCC1CN(c2c(F)cc3c(=O)c(C(=O)O)cn(-c4ccc(F)cc4F)c3c2OC)CCN1", "measure": "MIC50", "strain": "14 strains", "value": "≥32 µg/mL"}
{"compound": "CO[C@H]1/C=C/O[C@@]2(C)Oc3c(C)c(O)c4c(O)c(c5c(c4c3C2=O)NC2(CCN(CC(C)C)CC2)N=5)=NC(=O)/C(C)=C\\C=C\\[C@H](C)[C@H](O)[C@@H](C)[C@@H](O)[C@@H](C)[C@H](OC(C)=O)[C@@H]1C", "measure": "MBC", "strain": "2212", "value": "16 µg/mL"}
{"compound": "CO[C@H]1/C=C/O[C@@]2(C)Oc3c(C)c(O)c4c(O)c(c(/C=N/N5CCN(C/C=C/c6ccccc6)CC5)c(O)c4c3C2=O)NC(=O)/C(C)=C\\C=C\\[C@H](C)[C@H](O)[C@@H](C)[C@@H](O)[C@@H](C)[C@H](OC(C)=O)[C@@H]1C", "measure": "MBC", "strain": "101", "value": "2 µg/mL"}
{"compound": "NCC[C@H](O)C(=O)N[C@@H]1C[C@H](N)[C@@H](O[C@H]2O[C@H](CN)[C@@H](O)[C@H](O)[C@H]2O)[C@H](O)[C@H]1O[C@H]1O[C@H](CO)[C@@H](O)[C@H](N)[C@H]1O", "measure": "MIC", "strain": "TMC 1467", "value": "0.05 µg/mL"}
{"compound": "CC1CN(c2c(F)cc3c(=O)c(C(=O)O)cn(C4CC4)c3c2F)C(C)CN1", "measure": "MIC", "strain": "PI12/39", "value": "2 µg/mL"}
{"compound": "CCCCCCCCCCCCOC(=O)c1cc(O)c(O)c(O)c1", "measure": "MIC50", "strain": "32 isolates", "value": "128 µg/mL"}
{"compound": "NC[C@@H]1O[C@H](O[C@H]2[C@@H](O)[C@H](O[C@@H]3[C@@H](O)[C@H](N)C[C@H](N)[C@H]3O[C@H]3O[C@H](CO)[C@@H](O)C[C@H]3N)O[C@@H]2CO)[C@H](N)[C@@H](O)[C@@H]1O[C@H]1O[C@H](CO)[C@@H](O)[C@H](O)[C@@H]1O", "measure": "MIC", "strain": "Isolate 64", "value": "6.25 µg/mL"}
{"compound": "COc1ccc2c(c1)c(CC(=O)O)c(C)n2C(=O)c1ccc(Cl)cc1", "measure": "MIC90", "strain": "32 isolates", "value": ">128 µg/mL"}
{"compound": "Fc1ccccc1CSc1nc2ccccc2[nH]1", "measure": "MIC", "strain": "MY330/88", "value": ">125 µM"}
{"compound": "COC(=O)[C@H]1[C@H]2C[C@@H]3c4[nH]c5cc(OC)ccc5c4CCN3C[C@H]2C[C@@H](OC(=O)c2cc(OC)c(OC)c(OC)c2)[C@@H]1OC", "measure": "MIC50", "strain": "32 isolates", "value": "64 µg/mL"}
{"compound": "FC(F)(F)c1ccc(CSc2nc3ccccc3[nH]2)cc1", "measure": "MIC", "strain": "MY330/88", "value": ">32 µM"}
{"compound": "CC[C@H]1OC(=O)[C@H](C)[C@@H](O[C@H]2C[C@@](C)(OC)[C@@H](O)[C@H](C)O2)[C@H](C)[C@@H](O[C@@H]2O[C@H](C)C[C@H](N(C)C)[C@H]2O)[C@](C)(O)C[C@@H](C)C(=O)[C@H](C)[C@@H](O)[C@]1(C)O", "measure": "MIC", "strain": "3215", "value": "32 µg/mL"}
{"compound": "Brc1ccc(CSc2nc3ccccc3[nH]2)cc1", "measure": "MIC", "strain": "MY330/88", "value": ">125 µM"}
{"compound": "O=C(O)c1cn(C2CC2)c2c(F)c(N3CCNCC3)c(F)cc2c1=O", "measure": "MIC", "strain": "1172733", "value": "2 µg/mL"}

A second listing of 8 rows from above:

compound	read by	measure	strain	value
CN[C@@H]1[C@H](O[C@H]2[C@H](O[C@H]3[C@H](O)[C@@H](O)[C@H](N=C(N)N)[C@@H](O)[C@@H]3N=C(N)N)O[C@@H](C)[C@]2(O)C=O)O[C@@H](CO)[C@H](O)[C@H]1O	-	MIC	TMC 1469	1.56 µg/mL
C[C@@H]1CN(c2c(F)c(N)c3c(=O)c(C(=O)O)cn(C4CC4)c3c2F)C[C@H](C)N1	broth dilution	MIC	15	≤0.06 µg/mL
CCC1CN(c2cc3c(cc2F)c(=O)c(C(=O)O)cn3-c2ccc(F)cc2F)CCN1	-	MIC50	14 strains	8 µg/mL
CCn1cc(C(=O)O)c(=O)c2cc(F)c(N3CCNCC3)cc21	-	MIC	CIPT 14031006	2 µg/mL
NCCC(O)C(N)CC(=O)NC1CNC(=O)C(C2CCN=C(N)N2)NC(=O)/C(=C/NC(N)=O)NC(=O)C(CO)NC(=O)C(CO)NC1=O	-	MIC	TMC 1403	3.13 µg/mL
CN1CCN(c2cc3c(cc2F)c(=O)c(C(=O)O)cn3-c2ccc(F)cc2)CC1	-	MIC	3219	16 µg/mL
Brc1ccc(CSc2nc3ccccc3[nH]2)cc1	-	MIC	MY330/88	>125 µM
CC[C@@H](CO)NCCN[C@@H](CC)CO	-	MIC	595-5	1.9 µg/mL